Data as given in PubChem BioAssay AID624099 (ICCB-Longwood, 2012)

- Aim: 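Knock-downs relieving repression by E2 of an HPV18 LCR luciferase reporter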 (primary screen)
- System: human C33A cervical carcinoma cells (HPV-negative) stably expressing BPV1 E2 and an HPV18 LCR luciferase reporter
- Reagent: siRNA pool against human genes, 40 nM
- Duration: 72 h
- Measurement: 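Per-well luciferase luminescence, z-scored on each plate against the plate mean and SD with control wells left out, then averaged across three replicate plates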
- Reading the numbers: mean z-score and z-score: higher = stronger reporter signal, weaker E2 silencing
- Call rule: 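Mean z ≥ 2 together with z ≥ 2 in two or more of the three replicates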
Shown is an unselected part of about 21,000 reagents tested. 497 of all reagents (2.4%) count as active. 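Higher z means weaker E2 silencing; only reporter increases were scored, and knock-downs that hurt cell survival may mask genuine repressor factors.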 Entries without a mark were called inactive.

What did the screen give for H2BC13 (H2B clustered histone 13)?
mean z-score: -1.39; z-score, replicate A: -1.04; z-score, replicate B: -1.79; z-score, replicate C: -1.33

With PGBDF (plakoglobin binding and degradation factor), how do the results read?
mean z-score: 0.19; z-score, replicate A: 0.58; z-score, replicate B: 0.05; z-score, replicate C: -0.07

What did the screen give for GPT2 (glutamic--pyruvic transaminase 2)?
mean z-score: 1.31; z-score, replicate A: 1.33; z-score, replicate B: 1.35; z-score, replicate C: 1.26

For PRECSIT, what does the deposit list?
mean z-score: 1.48; z-score, replicate A: 1.34; z-score, replicate B: 1.87; z-score, replicate C: 1.22

What is on record for ATG14 (autophagy related 14)?
mean z-score: -0.02; z-score, replicate A: 0.05; z-score, replicate B: 0.1; z-score, replicate C: -0.21

Which result is listed for ZNF337 (zinc finger protein 337)?
mean z-score: 0.1; z-score, replicate A: 0.03; z-score, replicate B: 0.32; z-score, replicate C: -0.05

For ADGRB3 (adhesion G protein-coupled receptor B3), what was measured?
mean z-score: 0.36; z-score, replicate A: 0.39; z-score, replicate B: 0.52; z-score, replicate C: 0.17

With CDX2 (caudal type homeobox 2), what was measured?
mean z-score: -0.42; z-score, replicate A: -0.59; z-score, replicate B: -0.33; z-score, replicate C: -0.36

Which result is listed for SLC25A24?
mean z-score: -0.63; z-score, replicate A: -0.84; z-score, replicate B: -0.72; z-score, replicate C: -0.34

For MLEC (malectin), what does the deposit list?
mean z-score: -0.62; z-score, replicate A: -0.82; z-score, replicate B: -0.54; z-score, replicate C: -0.49

How did the screen score VMP1 (vacuole membrane protein 1)?
mean z-score: 1.68; z-score, replicate A: 1.3; z-score, replicate B: 1.67; z-score, replicate C: 2.08

For DOP1A (DOP1 leucine zipper like protein A), what does the deposit list?
mean z-score: 0.73; z-score, replicate A: 0.67; z-score, replicate B: 0.53; z-score, replicate C: 0.99

With GBX2 (gastrulation brain homeobox 2), what was measured?
mean z-score: -1.41; z-score, replicate A: -1.15; z-score, replicate B: -1.48; z-score, replicate C: -1.61

For GATD3 (glutamine amidotransferase class 1 domain containing 3), what does the deposit list?
mean z-score: -0.53; z-score, replicate A: -0.74; z-score, replicate B: -0.52; z-score, replicate C: -0.33

For ADAP1 (ArfGAP with dual PH domains 1), how do the results read?
mean z-score: 0.73; z-score, replicate A: 0.49; z-score, replicate B: 0.95; z-score, replicate C: 0.76

Which result is listed for SUPV3L1 (Suv3 like RNA helicase)?
mean z-score: 0.92; z-score, replicate A: 0.65; z-score, replicate B: 1.05; z-score, replicate C: 1.06

Which result is listed for H4C13 (H4 clustered histone 13)?
mean z-score: 1.22; z-score, replicate A: 1.42; z-score, replicate B: 1.03; z-score, replicate C: 1.21

How did the screen score SIX4 (SIX homeobox 4)?
mean z-score: 0.04; z-score, replicate A: -0.19; z-score, replicate B: 0.12; z-score, replicate C: 0.19

What is on record for CCDC26 (CCDC26 long non-coding RNA)?
mean z-score: 0.35; z-score, replicate A: 0.2; z-score, replicate B: 0.27; z-score, replicate C: 0.59

What did the screen give for ZNF740 (zinc finger protein 740)?
mean z-score: -1.08; z-score, replicate A: -1.02; z-score, replicate B: -1.17; z-score, replicate C: -1.04

For LTBP4 (latent transforming growth factor beta binding protein 4), what was measured?
mean z-score: 0.77; z-score, replicate A: 0.61; z-score, replicate B: 0.9; z-score, replicate C: 0.79
